Compound potency records, mixed from different reports. Data source: NIAID ChemDB in PubChem.

Common to all: growth or infection tests; agent: HIV-1; method: p24; measure: EC50

Neighbouring rows are from separate reports.

smiles,mutations,strain or isolate,cells,result
Cc1cn([C@H]2C[C@H](N=[N+]=[N-])[C@@H](CO)O2)c(=O)[nH]c1=O,,477 clinical isolates delavirdine-resistant,PBMC,<0.3 µM
CC(=O)c1sccc1NC(=O)CSc1nnnn1-c1c(C)cc(C)cc1C,,,MT-4,<10 µM
Cc1cn([C@H]2C[C@H](N=[N+]=[N-])[C@@H](CO)O2)c(=O)[nH]c1=O,RT-M41L D67N T69N K70R T215F K219E,7324-1 NRTI resistant recombinant,PBMC,>1 µM
O=C(CSc1nnnn1-c1ccccc1-c1ccccc1)Nc1ccccc1[N+](=O)[O-],,,MT-4,<10 µM
O=c1[nH]cnc2c1ncn2[C@H]1CC[C@@H](CO)O1,,U455,U-937,4.5 µM
Cc1cn([C@H]2C=C[C@@H](CO)O2)c(=O)[nH]c1=O,1(T69G+K103N),RT-T69G K103N,MT-2,0.543 µM
CCC[C@@]1(CCc2ccccc2)CC(O)=C([C@H](CC)c2cccc(NS(=O)(=O)c3ccc(C(F)(F)F)cn3)c2)C(=O)O1,,NL4-3,MT-4,<0.07 µM
Cc1cc(C)c(-n2nnnc2SCC(=O)Nc2ccc(C#N)cc2)c(C)c1,,,MT-4,<10 µM
Nc1ccn([C@H]2CC[C@@H](CO)O2)c(=O)n1,RT-K103N,,MT-2,0.049 µM
O=C1N(Cc2ccc(CO)cc2)[C@H](Cc2ccccc2)[C@H](O)[C@@H](O)[C@@H](Cc2ccccc2)N1Cc1ccc(CO)cc1,PR-L10R L63P V82T I84V,NL4-3,MT-4,<3 µM
Cc1cc(C)c(-n2nnnc2SCC(=O)Nc2ccc(C#N)cc2Cl)c(C)c1,,,MT-4,<10 µM
COC(=O)[C@H](C)NP(=O)(OC[C@@H]1C=C[C@H](n2cc(C)c(=O)[nH]c2=O)O1)Oc1ccc(Br)cc1,RT-M41L E44D D67N T69D L210W T215Y,T156-3 NRTI resistant,PBMC,0.0033 µM
CC(C)OC(=O)OCOP(=O)(CO[C@H](C)Cn1cnc2c(N)ncnc21)OCOC(=O)OC(C)C,,62J,PBMC,<0.005 µM
COC(=O)[C@H](C)NP(=O)(OC[C@@H]1C=C[C@H](n2cc(C)c(=O)[nH]c2=O)O1)Oc1ccc(Br)cc1,RT-K20R M41L D67N T69N K70R L210W T215Y,G890-1 Clinical isolate ZDV-resistant,PBMC,0.006 µM
O=C1N(Cc2ccc(CO)cc2)[C@H](Cc2ccccc2)[C@H](O)[C@@H](O)[C@@H](Cc2ccccc2)N1Cc1ccc(CO)cc1,,Clinical isolate L,PBMC,0.11 µM
Cc1cn([C@H]2C[C@H](N=[N+]=[N-])[C@@H](CO)O2)c(=O)[nH]c1=O,RT-M41L D67N K70R T215Y K219Q,G190-6 Clinical isolate ZDV-resistant,PBMC,>3.2 µM
CC(C)(C)NC(=O)[C@@H]1C[C@@H]2CCCC[C@@H]2CN1C[C@@H](O)[C@H](Cc1ccccc1)NC(=O)[C@H](CC(N)=O)NC(=O)c1ccc2ccccc2n1,PR-D30N M46I A71V,NL4-3,MT-4,<0.01 µM
CC(C)(C)NC(=O)[C@@H]1C[C@@H]2CCCC[C@@H]2CN1C[C@@H](O)[C@H](Cc1ccccc1)NC(=O)[C@H](CC(N)=O)NC(=O)c1ccc2ccccc2n1,PR-I84V,NL4-3,MT-4,<0.05 µM
O=c1[nH]cnc2c1ncn2[C@H]1CC[C@@H](CO)O1,,IIIB,MT-4,4.2 µM
O=c1[nH]cnc2c1ncn2[C@H]1CC[C@@H](CO)O1,,8684 CLADE C CLADE C,PBMC,1.87 µM
S=C(NCCc1cccs1)Nc1ccc(Br)cn1,RT-M41L L210W T215Y,Q252-2 Clinical isolate NRTI-resistant,PBMC,0.0055 µM

ECn: concentration that inhibits the pathogen or its effect by n%. An empty or dashed field is not shown.